These results are taken from the supplement of paper PMC6992640.

Among the test systems are HCI01; HCI03; HCI09; HCI11; HCI13; HCI16; UCD52; WHIM2; WHIM30.
Common to all, as to assay: cell viability (% of vehicle); higher = less cytotoxic
Holding throughout (conditions): 10 µM; 72 h

SMILES strings stand for the structures. ± gives the standard deviation of the averaged measurements. The list shows a part of the results, in another mix than the full data.
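Further: PDX cells carrying CMV promoter-driven luciferase, viability read as total photon flux per second by IVIS imaging following D-luciferin, vehicle control 0.1% DMSO.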

On to `O=P([O-])([O-])F.[Na+].[Na+]` [Sodium Monofluorophosphate], for which the cell viability in the assay with HCI01 worked out at 111 ± 31; with HCI03, 106; in the assay with HCI09, 102 ± 3.8; in the assay with HCI11, 93; in the assay on HCI13 (cells of an ER-positive luminal breast cancer xenograft), 52.4 ± 3.3; in the assay with HCI16, 103. The results for the cell viability with UCD52, in the assay on WHIM2 (cells of a triple-negative basal-like breast cancer xenograft) and with WHIM30 were 85 ± 17, 120 ± 18 and 119 ± 13, respectively.
